“And” between values parts separate entries of the source, which are not always exact repeats. Equal values may be shown once. This is a selection; strong and weak results do not stand in their true shares. The source made the active and inactive calls. The call rests on the fitted dose curve; in most records, active means well fitted inhibition curve with a large enough effect; inconclusive means small, poorly fitted or top-dose-only effect, or another doubt; inactive means no such curve, though single readings can be large or run the other way.
On the % scale 0 is the no-effect control and ±100 the full control effect.

The chains behind the UniProt entries cited, without tags or fusion partners. Where a name states a change or a piece, a line headed by the entry shows the natural chain unless it says otherwise.
UniProt Q27686: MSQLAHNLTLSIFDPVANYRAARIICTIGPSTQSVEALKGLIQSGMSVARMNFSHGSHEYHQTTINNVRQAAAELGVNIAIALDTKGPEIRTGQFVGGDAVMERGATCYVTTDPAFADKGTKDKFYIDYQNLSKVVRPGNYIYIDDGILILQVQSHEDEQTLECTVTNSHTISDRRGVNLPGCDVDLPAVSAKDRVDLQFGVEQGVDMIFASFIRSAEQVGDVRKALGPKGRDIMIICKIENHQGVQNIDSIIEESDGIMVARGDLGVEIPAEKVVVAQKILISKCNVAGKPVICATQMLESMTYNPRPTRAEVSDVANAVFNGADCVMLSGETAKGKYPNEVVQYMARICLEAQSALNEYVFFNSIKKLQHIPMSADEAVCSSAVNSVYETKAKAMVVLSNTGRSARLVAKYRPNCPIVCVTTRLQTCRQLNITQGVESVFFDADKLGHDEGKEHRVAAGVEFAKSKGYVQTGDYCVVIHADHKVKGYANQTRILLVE

The target of this assay is Pyruvate kinase (Leishmania mexicana) (UniProt Q27686). Nature of the assay: qHTS Assay for Inhibitors of Leishmania Mexicana Pyruvate Kinase (LmPK). The following applies: purified LmPK, Kinase-Glo ATP luminescence, 1 h; at 57.5 µM (top of the series). An excerpt:
NIH Chemical Genomics Center [NCGC] Malcolm Walkinshaw, Hugh Morgan, Linda Gilmore University of Edinburgh, UK MLPCN Grant: 1 R03 MH085697-01 NCGC Assay Overview: Pyruvate kinase (L. Mexicana) (LmPK) enzyme was supplied as a highly purified (>95% pure) sulphate-free preparation from University of Edinburgh, UK and assayed for its ability to generate ATP from ADP using phosphoenolpyruvate (PEP) as a substrate. ATP generation was detected in a coupled reaction by luciferase-mediated luminescence, an ATP-dependent process. […] The enzyme was assayed at an intermediate level of activity to screen for both inhibitors and activators.
NCGC Assay Protocol Summary: Three uL of enzyme mix (kept on ice) in assay buffer (50 mM Imidazole pH7.2, 50 mM KCl, 7 mM MgCl2, 0.01% Tween 20, 0.05% BSA) containing PEP (0.5 mM final concentration) and LmPK (0.1 nM final concentration) was dispensed into white solid bottom 1,536 well microtiter plates. 23 nL of compound were delivered by a pin tool and 1 uL of ADP mix in assay buffer (r.t; 0.1 mM final ADP concentration) was added. Plates were incubated at room temperature for 1 hour. Two uL of detection mix (Kinase-Glo, Promega; at 4 degree Celsius protected from light) was added and luminescence read by a ViewLux (Perkin Elmer) at 1 second exposure/plate. Data were normalized to the uninhibited and AC100 inhibition (no enzyme). To monitor activation, the first column contained a five-fold concentration of LmPK (0.5 nM).
For orientation: In qHTS, concentration-response curves come from the screen itself.
Take `CN1CCCC(OC(=O)C(c2ccccc2)c2ccccc2)C1` (centres undefined): the activity change, negative = inhibition is inactive: -0.377%. Next, `Clc1ccc(Cl)c(NC2=NCC(CBr)S2)c1` (centres undefined): inactive: 1.97%; `Cc1ccc(OP(=O)(Nc2nccs2)Oc2ccc(C)cc2)cc1`: inactive: 0.919%; `COc1ccccc1OP(=O)(Nc1ccc(C)cn1)Oc1ccccc1OC`: inactive: -5.4%.

In the case of `Cc1ccc(N/C(=N/P(=O)(N2CCOCC2)N2CCOCC2)N2CCOCC2)cc1`, the activity change, negative = inhibition is inactive: 1.83%. As to `NC(=O)c1cc([N+](=O)[O-])cc([N+](=O)[O-])c1N`, the activity change, negative = inhibition is inactive: -2.7%.

Turning to `O=C(NC(Sc1ccncn1)C(Cl)(Cl)Cl)c1ccccc1` (centres undefined), the activity change, negative = inhibition is inactive: 1.8%. Consider `Cc1c2non([O-])c-2c(C)[n+](=O)[n+]1[O-]`, for which the activity change, negative = inhibition is inactive: 1.07%.

Consider `Oc1ccccc1CNc1ccccn1`, for which the activity change, negative = inhibition was inactive: 11.2%. Consider `Nc1cc(N)c2nonc2c1[N+](=O)[O-]`, for which the activity change, negative = inhibition is inactive: 2.06%. For `CC(C)CC(=O)NC(Sc1ccc(Cl)cc1)C(Cl)(Cl)Cl` (centres undefined), the activity change, negative = inhibition was inactive: 0.232%. Consider `Cc1ccc(NP(=O)(Oc2ccccc2F)Oc2ccccc2F)nc1`, for which the activity change, negative = inhibition is inactive: 2.71%. On to `Cc1cc(SC(NC(=O)c2ccc(F)cc2)C(Cl)(Cl)Cl)ncn1` (centres undefined), for which the activity change, negative = inhibition is inactive: 2.91%. As for `CCOP(=O)(Nc1ccccc1)OCC`, the figure is inactive: 2.92% and inactive: 0.17%; as for `O=P(Nc1nc2ccc(Cl)cc2s1)(c1ccccc1)c1ccccc1`, inactive: -3.08%. As for `CC(=O)Nc1ccc([As](=O)(O)O)cc1`, the figure is inactive: -0.908%. On to `O=C(O)c1ccccc1[As](=O)(O)O`, for which the activity change, negative = inhibition was inactive: -8.03%. As for `Nc1cccc2ccc([As](=O)(O)O)cc12`, the figure is inactive: 5.7%; as for `CCN(N=Nc1nonc1N)c1nonc1N`, inactive: -0.483%; as for `O=[N+]([O-])c1cc([N+](=O)[O-])c(CCN2CCOCC2)c([N+](=O)[O-])c1`, inactive: 8.38%. As for `O=C(Nc1cc([As](=O)(O)O)ccc1O)c1ccccc1`, the figure is inactive: 5.77%.

On to `O=C(O)CNc1ccc([As](=O)(O)O)cc1`, for which the activity change, negative = inhibition was inactive: -0.544%. As for `O=[N+]([O-])c1cccc(NC2=NCC(CBr)S2)c1` (centres undefined), the figure is inactive: -4.87%; as for `O=[N+]([O-])c1ncn(CCn2ncnc2[N+](=O)[O-])n1`, inactive: 1.45%. As for `CC(C)(C)C(=O)NC(Sc1ccncn1)C(Cl)(Cl)Cl` (centres undefined), the figure is inactive: 3.47%.

As to `CCc1nc2c(n1)c1c(non1O)c1c2no[n+]1[O-]`, the activity change, negative = inhibition is inactive: -6.62%. Next, `O=[N+]([O-])c1cc([N+](=O)[O-])c(CCNc2ccccc2)c([N+](=O)[O-])c1`: inactive: -6.23%.

On to `Cc1ccc(NP(=O)(Oc2ccccc2)Oc2ccccc2)nc1`, for which the activity change, negative = inhibition was inactive: -0.252%. Next, `O=[N+]([O-])c1cccc2n[nH]nc12`: inactive: 4.21%; `CC(=O)N1C2C3N(C(C)=O)C1C1N(C(C)=O)C(C(N1C(C)=O)N3C(C)=O)N2C(C)=O`: inactive: 2.65%; `COc1ccc(C2=NCC(CBr)S2)cc1` (centres undefined): inactive: -2.61%.

On to `CC1CCN(C(=O)Oc2c(Cl)cc(Cl)c3cccnc23)CC1`, for which the activity change, negative = inhibition was inactive: 2.82%. Next, `CN(C)C(=O)OCCc1n(C)cc[n+]1C`: inactive: -2.54%; `CC(C)=N/N=C(\N)N[N+](=O)[O-]`: inactive: 0.909%. Next, `CCN(/C(=N/P(=O)(N1CCOCC1)N1CCOCC1)N1CCOCC1)c1ccc(OC)cc1`: inactive: 0.99%. As for `Nc1ccc([As](=O)(O)c2ccc(N)cc2)cc1`, the figure is inactive: 1.25%. Take `c1nnnn1CCn1cnnn1`: the activity change, negative = inhibition was inactive: 2.53%. Next, `CC(C)C(=O)NC(Sc1ccccc1)C(Cl)(Cl)Cl` (centres undefined): inactive: 0.892%; `O=P(Nc1nccs1)(c1ccccc1)c1ccccc1`: inactive: -11.8%; `C[C@H]1OP(=O)(Oc2ccccc2)[C@H](O)[C@H](O)[C@H]1N=[N+]=[N-]` (some centres undefined): inactive: -0.878%. As for `O=P(Nc1nc2ccccc2s1)(c1ccccc1)c1ccccc1`, the figure is inactive: 2.19%; as for `O=P(Nc1ccccn1)(c1ccc(Br)cc1)c1ccc(Br)cc1`, inactive: 0.396%; as for `CN(C)C1(CNC(=O)c2ccc(Cl)c(S(N)(=O)=O)c2)CCCCC1`, inactive: 0.502%. As for `O=C(OC1CN2CCC1CC2)c1cccc(Cl)c1` (centres undefined), the figure is inactive: 3.69%; as for `C(Cc1nn[nH]n1)Cc1nn[nH]n1`, inactive: -3.29%; as for `Nc1ccc([As](=O)(O)c2ccc([N+](=O)[O-])cc2)cc1`, inactive: 0.847%. `O=[As](O)(c1ccccc1)c1ccc(O)cc1`: the activity change, negative = inhibition was inactive: 4.41%. As for `O=[N+]([O-])c1ccc(O)c(/C=N/Nc2ccc([N+](=O)[O-])cc2[N+](=O)[O-])c1`, the figure is inactive: 7.29%; as for `O=[N+]([O-])c1ncn(CCn2cnc([N+](=O)[O-])n2)n1`, inactive: 0.369%. As for `CC(=O)NC(SC(=S)N(C)C)C(Cl)(Cl)Cl` (centres undefined), the figure is inactive: -1.75%. Turning to `CCOC(=O)NC(Sc1ccccc1)C(Cl)(Cl)Cl` (centres undefined), the activity change, negative = inhibition is inactive: -0.677%. As for `Cc1ccc(NP(=O)(Oc2cccc(C)c2)Oc2cccc(C)c2)nc1`, the figure is inactive: 1.1%. Next, `c1ccc(-c2nn[nH]n2)c(-c2nn[nH]n2)c1`: inactive: 4.57%; `CCNC(=S)/N=C(\N)N[N+](=O)[O-]`: inactive: 3.67%. As for `O=C(NC1CCS(=O)(=O)C1)NP(=S)(Oc1ccccc1)Oc1ccccc1` (centres undefined), the figure is inactive: 12.2%; as for `O=c1c2cc([N+](=O)[O-])ccc2[nH]c2c([N+](=O)[O-])cc([N+](=O)[O-])cc12`, inactive: -4.9%; as for `CN(C)C(=O)Oc1noc2ccccc12`, inactive: 2.58%. For `Cc1ccccc1OP(=O)(Nc1ccccn1)Oc1ccccc1C`, the activity change, negative = inhibition is inactive: 7.27%. As for `CCC(=O)N1C2C3N(C(=O)CC)C1C1N(C(=O)CC)C(C(N1C(=O)CC)N3C(=O)CC)N2C(=O)CC`, the activity change, negative = inhibition was inactive: 0.71%.

Turning to `O=C(OC1CN2CCC1CC2)c1ccccc1` (centres undefined), the activity change, negative = inhibition was inactive: -3.03%.

For the compound `Cc1ccc(OP(=O)(Nc2ccccn2)Oc2ccc(C)cc2)cc1`, the activity change, negative = inhibition is inactive: 5.34%. Next, `CC(=O)NC(SC(=S)N(CC(C)C)CC(C)C)C(Cl)(Cl)Cl` (centres undefined): inactive: 1.59%; `COC(=O)c1cc2c(s1)N=C(c1ccccc1)N(C)P2(=O)N1CCOCC1` (centres undefined): inactive: -2.09%. Next, `CC(C)(C)C(=O)NC(Sc1ccccc1)C(Cl)(Cl)Cl` (centres undefined): inactive: -10.4%.

These data come from PubChem BioAssay AID1721 (National Center for Advancing Translational Sciences (NCATS), 2009).
